Reference: article PMC10331576 (2023)

Target: COVID-2019-Spike-328-585 (RBD) (SARS-CoV-2)
Assay: BLI

B1: human CLEC2.Fc fusion protein (Fc fusion)
chain: SVMQRNYLQGENENRTGTLQQLAKRFCQYVVKQSELKGTFKGHKCSPCDTNWRYYGDSCYGFFRHNLTWEESKQYCTDMNATLLKIDNRNIVEYIKARTHLIRWVGLSRQKSNEVWKWEDGSVISENMFEFLEDGKGNMNCAYFHNGKMHPTFCENKHYLMCERKAGMTKVDQLP
  koff: 0.000574 s⁻¹
